Here are results for six molecules from the supplement of paper PMC9931576.

Human monoclonal antibodies against the spike receptor-binding domain (heavy:light variable regions). IC50 against pseudoviruses bearing the spike of naturally observed variants; lower = stronger; >10 µg/ml means not reached at the top dose. No active / inactive call. The stated detection limit is 0.0005 µg/ml; values near or below 0.001 µg/ml lie at the floor of the assay. Bounds are passed on as bounds.

Experiment in all cases: pseudovirus neutralization IC50; higher = weaker neutralization
Test [1] has as its target SARS-CoV-2 Omicron BA.1 spike pseudovirus. The protocol: (§1)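 Single-round VSV luciferase pseudovirus mixed with antibody dilutions for 1 h and put on Huh-7 cells for about a day; IC50 from the dose curve.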
Test [2] has as its target SARS-CoV-2 Omicron BA.2 spike pseudovirus. The protocol: as §1
Test [3] deals with SARS-CoV-2 Omicron BA.2.75 spike pseudovirus. The method, then: as §1
Test [4] deals with SARS-CoV-2 Omicron BA.5 spike pseudovirus. The protocol:
as §1

Test [5] concerns the target SARS-CoV-2 Omicron BQ.1.1 spike pseudovirus. The method, then:
as §1

Test [6] deals with SARS-CoV-2 Omicron XBB spike pseudovirus. The protocol:
as §1

Test [7] has as its target SARS-CoV-2 early D614G spike pseudovirus. The protocol:
as §1

B1: BD57-0283 (protein)
chain 1: EVQLVQSGAEVKKAGESLKISCKTSGYSFTRYWIGWVRQMPGKGLEWMGIIYPGDSDTTYSPSFQGQVTISADKSINTAYLQWSSLKASDTAMYYCATMMRGPSSGDPFEYWGQGTLVTVSS
chain 2: DIQMTQSPSSVSASVGDRVTITCRASQGISSWLAWYQQKPGKAPKVLIYAASSLQSGVPSRFSGSGSGTDFTLTISSLQPEDFATYYCQQGSSLPLTFGGGTKVEIK
For the molecule B1, the “pseudovirus neutralization IC50” value in test [1] came to 0.848 µg/mL; in test [2] it was 1.45 µg/mL; in test [3], 0.932 µg/mL; in test [4], 1.12 µg/mL; in test [5] it was 1.66 µg/mL; in test [6], 2.6 µg/mL. Besides, the “pseudovirus neutralization IC50” value in test [7] came out at 2.34 µg/mL.

B2: BD57-0264 (protein)
chain 1: QDHLVQSGAEVRKAGTSVKVSCRASGGSFSSYSFNWVRQAPGQGLEWMGRIIPILDIANYAQKFQGRVTITADTSTSTVYMGLSSLTFEDTAVYFCARGSSDYGDNLLSGLDWFDPWGQGTLVTVSS
chain 2: QSVLTQPPSVSGAPGQRVTISCSGSSSNIGAGYDVHWYQQLPGTAPKLLIFGNTNRPSGVPDRFSGSKSGTSASLAIIGLQAEDEAGYYCQSYDSSLSHVIFGGGTKLTVL
With B2, the “pseudovirus neutralization IC50” value in test [1] is 0.0716 µg/mL; in test [2], 0.0963 µg/mL; in test [3] it was 0.446 µg/mL; in test [4] it was 0.0629 µg/mL; in test [5] it was 0.537 µg/mL; in test [6] it was 0.62 µg/mL. Also, the “pseudovirus neutralization IC50” value in test [7] is 0.00303 µg/mL.

B3: BD57-0272 (protein)
chain 1: QVQVVESGGGVVQPGRSLRLSCVVSGFTFSTYGMHWVRQAPGKGPEWVAVIWYDGTNEHYTDSVKGRFTISRDNSKNTLYLEMNSLRAEDTAVYYCAREAFYYGSNGENYFQYYMDVWGKGTTVTVSS
chain 2: QSALTQPRSVSGSPGQSVTISCTGTSSDVGGYNYVSWYQHHPGKAPKVMIYDVNKRPSGVPDRFSGSKSDNTASLTISGLQAEDEADYYCCSYAGTYTYVFGTGTTVSVL
Take B3: the “pseudovirus neutralization IC50” value is 0.275 µg/mL in test [1]; 0.969 µg/mL in test [2]; 0.631 µg/mL in test [3]; 0.637 µg/mL in test [4]; greater than 10 µg/mL in test [5]; 4.17 µg/mL in test [6]. For the same molecule, the “pseudovirus neutralization IC50” value in test [7] was determined as 0.614 µg/mL.

B4: BD57-0270 (protein)
chain 1: QLQLQESGPGVVKPSQTLSLTCTVSGGSISSGGFYWNWIRQHPVKGLEWIGSIFYSGSTYYNPSLKSRLTMAVDTSKNQLSLKLRSVTAADTAVYYCARDFGGNANYFAFWGQGTRVTVSS
chain 2: DIQMTQSPSSLSASVGDRVTITCQASQDITNYLSWYQQKPGKAPKLLIYDASNLETGVPSRFSGSGSGTDFTLTISSLQPEDFATYYCQQYYNNLPLTFGGGTKVEIK
With B4, the “pseudovirus neutralization IC50” value worked out at 6.18 µg/mL in test [1]; 4.08 µg/mL in test [2]; 3.24 µg/mL in test [3]; 5.41 µg/mL in test [4]; 7.12 µg/mL in test [5]; 5 µg/mL in test [6]. Further, the “pseudovirus neutralization IC50” value in test [7] was found to be 5.34 µg/mL.

B5: BD57-0275 (protein)
chain 1: QVQLVQSGAEMKKPGSSVKVSCKASGGTFSSYTFTWVRQAPGQGLEWMGRIIPILGVADSAQKFQGRVTISADKSTSTVYMELSSLRSEDTALYYCARERGYSDSGSAYYFDSWGQGTLVTVSS
chain 2: QSVLTQPPSVSGAPGQRVTISCTGSNSNLGAGYDVHWYQQLPGAAPKLLIYANTNRPSGVPDRFSGSKSGTSASLAITGLQAEDEADYYCQSYDSGLSGSLFGGGTKLTVL
As to B5, the “pseudovirus neutralization IC50” value is 0.0217 µg/mL in test [1]; 0.0479 µg/mL in test [2]; 0.0311 µg/mL in test [3]; 0.618 µg/mL in test [4]; 2.06 µg/mL in test [5]; 1.13 µg/mL in test [6]. For the same molecule, in test [7], the “pseudovirus neutralization IC50” value was 0.219 µg/mL.

B6: BD57-0279 (protein)
chain 1: QVQLQESGPGLVKPSQTLSLTCAVSGGSISSGGYYWTWIRQHPGKGLEWIGYISYSGSTYYNPSLKSRLTISVDTSKNQFSLKLSSVTAADTAVYYCARERAYDSSGPKGYFDYWGQGTLVAVSS
chain 2: SYVLTQPPSVSVAPGQTARITCGGDTIGSKNVHWYQHRPGQAPVLVVYDDSDRPSGIPERFSGSNSGNTATLTISRVEAGDEADYYCQVWDSTSDHPYVFGTGTKVTVL
As for B6, the “pseudovirus neutralization IC50” value in test [1], in test [2], in test [3], in test [4], in test [5] and in test [6] was greater than 10 µg/mL throughout. In addition, in test [7], the “pseudovirus neutralization IC50” value was 4.42 µg/mL.
